In assay [1] the test system is corn protoplasts. As to the kind of experiment: Calcium burst in transiently transfected corn protoplasts, apoaequorin luminescence reporter. Particulars: for strength of response relative to control construct AtRLP23-ejmAtRLP42-AtEFR-3×FLAG: FIG. 8; for Ca^2+ increase in response to CgNLP24b (aequorin luminescence): 1 μM CgNLP24b; for Ca^2+ increase in response to FgNLP24c (aequorin luminescence): 1 μM FgNLP24c; for Ca^2+ increase in response to FvNLP24a (aequorin luminescence): 1 μM FvNLP24a; for Ca^2+ increase in response to PpNLP20 (aequorin luminescence): 1 μM PpNLP20; for Ca^2+ increase in response to SmNLP24 (aequorin luminescence): 1 μM SmNLP24.

Assay [2] deals with corn protoplasts. As to the kind of experiment: Calcium burst in transiently transfected corn protoplasts, R-GECO1.2 fluorescence reporter. Type of assay: cell-based, Zea mays. The following applies: 1 μM PpNLP20.
Where [3] appears, read: transient expression in corn protoplasts.

The record followed here is patent publication US20220251595A1, “ENGINEERED ATRLP23 PATTERN RECOGNITION RECEPTORS AND METHODS OF USE” (priority 2019, published 2022).

B1: AtRLP23-AtPEPR1-3×FLAG: AtRLP23 apoplastic and eJM domains, AtPEPR1 TM and kinase domains, 3×FLAG; SEQ ID NO: 572, 573 (protein)
chain: MSKALLHLHFLSLFLLCCVCHSSIFTLNFHFTGIVACRPHQIQAFTKFTNEFDTRGCNNSDTFNGVWCDNSTGAVAVLQLRKCLSGTLKSNSSLFGFHQLRYVDLQNNNLTSSSLPSGFGNLKRLEGLFLSSNGFLGQVPSSFSNLTMLAQLDLSYNKLTGSFPLVRGLRKLIVLDLSYNHFSGTLNPNSSLFELHQLRYLNLAFNNFSSSLPSKFGNLHRLENLILSSNGFSGQVPSTISNLTRLTKLYLDQNKLTSSFPLVQNLTNLYELDLSYNKFFGVIPSSLLTLPFLAHLALRENNLAGSVEVSNSSTSSRLEIMYLGSNHFEGQILEPISKLINLKHLDLSFLNTSYPIDLKLFSSLKSLRSLDLSGNSISSASLSSDSYIPLTLEMLTLRHCDINEFPNILKTLKELVYIDISNNRMKGKIPEWLWSLPLLQSVTLGNNYFTGFQGSAEILVNSSVLLLYLDSNNFEGALPDLPLSIKGFGVASNSFTSEIPLSICNRSSLAAIDLSYNNFTGPIPPCLRNLELVYLRNNNLEGSIPDALCDGASLRTLDVSHNRLTGKLPRSFVNCSSLKFLSVINNRIEDTFPFWLKALPNLQVLTLRSNRFYGPISPPHQGPLGFPELRIFEISDNKFTGSLPPNYFVNWKASSRTMNQDGGLYMVYEEKLFDEGGYGYTDALDLQYKGLHMEQAKALTSYAAIDFSGNRLEGQIPESIGLLKALIAVNISNNAFTGHIPLSMANLENLESLDMSRNQLSGTIPNGLGSISFLAYINVSHNQLTGEIPQGTQITGQSKSSFEGNAGLCGLPLKESCFGTGAPPMYHQKQEDKEEEEEEEEEEEEVLNGRIVLIAVLSSLLVLVVVLALVFICLRRRKGRPEKDAYVFTQEEGPSLLLNKVLAATDNLNEKYTIGRGAHGIVYRASLGSGKVYAVKRLVFASHIRANQSMMREIDTIGKVRHRNLIKLEGFWLRKDDGLMLYRYMPKGSLYDVLHGVSPKENVLDWSARYNVALGVAHGLAYLHYDCHPPIVHRDIKPENILMDSDLEPHIGDFGLARLLDDSTVSTATVTGTTGYIAPENAFKTVRGRESDVYSYGVVLLELVTRKRAVDKSFPESTDIVSWVRSALSSSNNNVEDMVTTIVDPILVDELLDSSLREQVMQVTELALSCTQQDPAMRPTMRDAVKLLEDVKHLARSCSSDSVRSDYKDHDGDYKDHDLDAAAADYKDDDDK
modifications: Fusion protein
In the case of B1, the “strength of response relative to control construct AtRLP23-ejmAtRLP42-AtEFR-3×FLAG” value in assay [1] (FgNLP24c) was “similar”; in assay [1] (all other NLPs (CgNLP24b, FvNLP24a, SmNLP24)) it was “weaker”.

B2: AtRLP23-eJMAtRLP42-AtEFR-3×FLAG: AtRLP23 apoplastic domain, AtRLP42 eJM domain, AtEFR TM and cytoplasmic domains, 3×FLAG; SEQ ID NO: 61, 62 (protein)
chain: MSKALLHLHFLSLFLLCCVCHSSIFTLNFHFTGIVACRPHQIQAFTKFTNEFDTRGCNNSDTFNGVWCDNSTGAVAVLQLRKCLSGTLKSNSSLFGFHQLRYVDLQNNNLTSSSLPSGFGNLKRLEGLFLSSNGFLGQVPSSFSNLTMLAQLDLSYNKLTGSFPLVRGLRKLIVLDLSYNHFSGTLNPNSSLFELHQLRYLNLAFNNFSSSLPSKFGNLHRLENLILSSNGFSGQVPSTISNLTRLTKLYLDQNKLTSSFPLVQNLTNLYELDLSYNKFFGVIPSSLLTLPFLAHLALRENNLAGSVEVSNSSTSSRLEIMYLGSNHFEGQILEPISKLINLKHLDLSFLNTSYPIDLKLFSSLKSLRSLDLSGNSISSASLSSDSYIPLTLEMLTLRHCDINEFPNILKTLKELVYIDISNNRMKGKIPEWLWSLPLLQSVTLGNNYFTGFQGSAEILVNSSVLLLYLDSNNFEGALPDLPLSIKGFGVASNSFTSEIPLSICNRSSLAAIDLSYNNFTGPIPPCLRNLELVYLRNNNLEGSIPDALCDGASLRTLDVSHNRLTGKLPRSFVNCSSLKFLSVINNRIEDTFPFWLKALPNLQVLTLRSNRFYGPISPPHQGPLGFPELRIFEISDNKFTGSLPPNYFVNWKASSRTMNQDGGLYMVYEEKLFDEGGYGYTDALDLQYKGLHMEQAKALTSYAAIDFSGNRLEGQIPESIGLLKALIAVNISNNAFTGHIPLSMANLENLESLDMSRNQLSGTIPNGLGSISFLAYINVSHNQLTGEIPQGTQITGQSKSSFEGNAGLCGLPLKESCFGTGAPPMYHQKQEDKEEEEAEEDEQELNWKVVSGICIGIASLLLIIIVASLCWFMKRKKKNNASDGNPSDSTTLGMFHEKVSYEELHSATSRFSSTNLIGSGNFGNVFKGLLGPENKLVAVKVLNLLKHGATKSFMAECETFKGIRHRNLVKLITVCSSLDSEGNDFRALVYEFMPKGSLDMWLQLEDLERVNDHSRSLTPAEKLNIAIDVASALEYLHVHCHDPVAHCDIKPSNILLDDDLTAHVSDFGLAQLLYKYDRESFLNQFSSAGVRGTIGYAAPEYGMGGQPSIQGDVYSFGILLLEMFSGKKPTDESFAGDYNLHSYTKSILSGCTSSGGSNAIDEGLRLVLQVGIKCSEEYPRDRMRTDEAVRELISIRSKFFSSKTTITESPRDAPQSSPQEWMLNTDMHTMASDYKDHDGDYKDHDLDAAAADYKDDDDK
modifications: Fusion protein
As for B2, the “response compared with AtRLP23-eJMAtRLP42-3×FLAG” value in assay [1] (FIG. 6, for the five peptides PpNLP20, CgNLP24b, FgNLP24c, FvNLP24a, SmNLP24) is reported as “stronger response”. In assay [1] (transient expression in corn protoplasts, 1 μM AfNLP24a), the “Ca^2+ increase in response to AfNLP24a (aequorin luminescence)” value was “Ca^2+ increase”. Further, the “Ca^2+ increase in response to AfNLP24b (aequorin luminescence)” value in assay [1] (transient expression in corn protoplasts, 1 μM AfNLP24b) is “Ca^2+ increase”. In addition, the “Ca^2+ increase in response to AfNLP24c (aequorin luminescence)” value in assay [1] (transient expression in corn protoplasts, 1 μM AfNLP24c) is “Ca^2+ increase”. The “Ca^2+ increase in response to ApNLP24a (aequorin luminescence)” value in assay [1] (transient expression in corn protoplasts, 1 μM ApNLP24a) is “Ca^2+ increase”. Further, in assay [1] (setting [3]), the “Ca^2+ increase in response to CgNLP24b (aequorin luminescence)” value was “Ca^2+ increase”, the “Ca^2+ increase in response to FgNLP24c (aequorin luminescence)” value is recorded as “Ca^2+ increase”, the “Ca^2+ increase in response to FvNLP24a (aequorin luminescence)” value is reported as “Ca^2+ increase” and the “Ca^2+ increase in response to PpNLP20 (aequorin luminescence)” value is “significant Ca^2+ increase”. Also, the “Ca^2+ increase in response to SmNLP24 (aequorin luminescence)” value in assay [1] (setting [3]) was “Ca^2+ increase”.

B3: AtRLP23-eJMAtRLP42-3×FLAG: AtRLP23 with the AtRLP42 eJM domain, 3×FLAG; SEQ ID NO: 57, 58 (protein)
chain: MSKALLHLHFLSLFLLCCVCHSSIFTLNFHFTGIVACRPHQIQAFTKFTNEFDTRGCNNSDTFNGVWCDNSTGAVAVLQLRKCLSGTLKSNSSLFGFHQLRYVDLQNNNLTSSSLPSGFGNLKRLEGLFLSSNGFLGQVPSSFSNLTMLAQLDLSYNKLTGSFPLVRGLRKLIVLDLSYNHFSGTLNPNSSLFELHQLRYLNLAFNNFSSSLPSKFGNLHRLENLILSSNGFSGQVPSTISNLTRLTKLYLDQNKLTSSFPLVQNLTNLYELDLSYNKFFGVIPSSLLTLPFLAHLALRENNLAGSVEVSNSSTSSRLEIMYLGSNHFEGQILEPISKLINLKHLDLSFLNTSYPIDLKLFSSLKSLRSLDLSGNSISSASLSSDSYIPLTLEMLTLRHCDINEFPNILKTLKELVYIDISNNRMKGKIPEWLWSLPLLQSVTLGNNYFTGFQGSAEILVNSSVLLLYLDSNNFEGALPDLPLSIKGFGVASNSFTSEIPLSICNRSSLAAIDLSYNNFTGPIPPCLRNLELVYLRNNNLEGSIPDALCDGASLRTLDVSHNRLTGKLPRSFVNCSSLKFLSVINNRIEDTFPFWLKALPNLQVLTLRSNRFYGPISPPHQGPLGFPELRIFEISDNKFTGSLPPNYFVNWKASSRTMNQDGGLYMVYEEKLFDEGGYGYTDALDLQYKGLHMEQAKALTSYAAIDFSGNRLEGQIPESIGLLKALIAVNISNNAFTGHIPLSMANLENLESLDMSRNQLSGTIPNGLGSISFLAYINVSHNQLTGEIPQGTQITGQSKSSFEGNAGLCGLPLKESCFGTGAPPMYHQKQEDKEEEEAEEDEQELNWKAVAIGYGSGLLLGLAIAQVIASYKPEWLVKIIGLNKRRKRSDYKDHDGDYKDHDLDAAAADYKDDDDK
modifications: Fusion protein
For B3, in assay [2] (Example 2, FIG. 3, 40 minutes, 96-well), the “response to PpNLP20 compared to transient expression of AtRLP23-3×FLAG (total transient increase of fluorescence)” value was “statistically significant increase of response”. The “Ca^2+ increase in response to PpNLP20 treatment (R-GECO1.2 fluorescence)” value in assay [2] (setting [3]) is listed as “Ca^2+ increase”. Further, in assay [1] (setting [3]), the “Ca^2+ increase in response to CgNLP24b (aequorin luminescence)” value is given as “Ca^2+ increase”, the “Ca^2+ increase in response to FgNLP24c (aequorin luminescence)” value is “Ca^2+ increase”, the “Ca^2+ increase in response to FvNLP24a (aequorin luminescence)” value is reported as “Ca^2+ increase” and the “Ca^2+ increase in response to PpNLP20 (aequorin luminescence)” value was “Ca^2+ increase”. For the same molecule, in assay [1] (setting [3]), the “Ca^2+ increase in response to SmNLP24 (aequorin luminescence)” value is recorded as “Ca^2+ increase”.
